# PubChem BioAssay AID624099 | ICCB-Longwood – 2012
# Purpose: 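Host factors E2 relies on to silence an HPV18 LCR reporter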 (primary screen)
# Cells: human C33A cervical carcinoma cells (HPV-negative) stably expressing BPV1 E2 and an HPV18 LCR luciferase reporter
# Knock-down reagent: siRNA pool against human genes, 40 nM
# Timing: 72 h
# Read-out: 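Per-well luciferase luminescence, z-scored on each plate against the plate mean and SD with control wells left out, then averaged across three replicate plates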
# Direction: mean z-score and z-score: higher = stronger reporter signal, weaker E2 silencing
# Rule for the call: 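Hit if mean z-score reaches 2 and two or more of three replicate z-scores also reach 2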
# Here is an unselected part of about 21,000 deposited reagents. 497 of all reagents (2.4%) count as active. 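Higher z means weaker E2 silencing; only reporter increases were scored, and knock-downs that hurt cell survival may mask genuine repressor factors.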 The numbers tell different reagents against one gene apart.
gene knocked down,reagent no.,mean z-score,"z-score, replicate A","z-score, replicate B","z-score, replicate C",outcome
ICE2 (interactor of little elongation complex ELL subunit 2),1,-0.9,-1.24,-0.69,-0.77,inactive
OLA1 (Obg like ATPase 1),1,-0.45,-0.16,-0.16,-1.03,inactive
ZNF280C (zinc finger protein 280C),1,0.07,-0.01,0.25,-0.03,inactive
HYAL1 (hyaluronidase 1),1,0.21,0.34,0.32,-0.04,inactive
MTNR1B (melatonin receptor 1B),1,0.85,0.71,0.72,1.1,inactive
OR5F1 (olfactory receptor family 5 subfamily F member 1),1,0.81,0.83,0.81,0.79,inactive
UBTD2 (ubiquitin domain containing 2),1,1.12,1.19,1.13,1.04,inactive
"ZNF788P (zinc finger family member 788, pseudogene)",1,0.58,0.65,0.35,0.74,inactive
MRPL58 (mitochondrial ribosomal protein L58),1,-0.91,-0.73,-1.22,-0.77,inactive
UROC1 (urocanate hydratase 1),1,-0.21,-0.06,-0.46,-0.11,inactive
GZMK (granzyme K),1,0.93,0.8,0.81,1.19,inactive
DNM1P30 (dynamin 1 pseudogene 30),1,-0.21,-0.54,-0.11,0.01,inactive
ZNF358 (zinc finger protein 358),1,1.29,0.91,1.17,1.8,inactive
NOTCH4 (notch receptor 4),1,0.18,0.06,0.17,0.29,inactive
LOC402318 (retired record),1,0.49,0.55,0.44,0.46,inactive
MS4A15 (membrane spanning 4-domains A15),1,0.51,0.64,0.61,0.3,inactive
"NPHS2 (NPHS2 stomatin family member, podocin)",1,-0.79,-0.89,-0.76,-0.71,inactive
EXOSC7 (exosome component 7),1,1.42,2.04,1.1,1.1,inactive

A few values from above:
For “outcome”, NPHS2 (NPHS2 stomatin family member, podocin) reads inactive
For “z-score, replicate A”, DNM1P30 (dynamin 1 pseudogene 30) reads -0.54
Result of LOC402318 (retired record) in “z-score, replicate A”: 0.55
For “z-score, replicate B”, ZNF358 (zinc finger protein 358) has 1.17

Further reagents follow:
gene knocked down,reagent no.,mean z-score,"z-score, replicate A","z-score, replicate B","z-score, replicate C",outcome
BRINP3 (BMP/retinoic acid inducible neural specific 3),1,0.02,0.16,0.03,-0.13,inactive
MPI (mannose phosphate isomerase),1,0.86,1.01,0.9,0.67,inactive
ZNF211 (zinc finger protein 211),1,0.48,0.75,0.63,0.07,inactive
OOSP1 (oocyte secreted protein 1),1,-0.01,-0.09,0,0.06,inactive
ARK2C,1,-0.85,-0.76,-1.1,-0.68,inactive
HOXA3 (homeobox A3),1,0.26,0.28,0.34,0.16,inactive
CLEC18C (C-type lectin domain family 18 member C),1,-0.49,,-0.43,-0.54,inactive
CD163L1 (CD163 molecule like 1),1,1.09,1.09,1.12,1.05,inactive
NTN4 (netrin 4),1,-0.03,0.06,0,-0.16,inactive
IL37 (interleukin 37),1,-0.11,0.15,-0.23,-0.24,inactive
ZFP36L2 (ZFP36 like 2 zinc finger CCCH-type),1,-0.69,-0.8,-0.49,-0.78,inactive
OR4K13 (olfactory receptor family 4 subfamily K member 13),1,-0.93,-1.2,-0.52,-1.07,inactive
RBM46 (RNA binding motif protein 46),1,0.92,1.28,0.81,0.69,inactive
GBP1 (guanylate binding protein 1),1,-1.25,-1.11,-1.39,-1.24,inactive
DNAH10 (dynein axonemal heavy chain 10),1,0.22,0.73,0.11,-0.16,inactive
DNAH10 (dynein axonemal heavy chain 10),2,-0.79,-1.02,-0.94,-0.42,inactive
DNAH10 (dynein axonemal heavy chain 10),3,0.93,1.24,0.77,0.79,inactive
HS6ST1P1 (heparan sulfate 6-O-sulfotransferase 1 pseudogene 1),1,-0.13,-0.32,-0.01,-0.07,inactive
DISC1 (DISC1 scaffold protein),1,0.2,0.32,0.1,0.18,inactive
DISC1 (DISC1 scaffold protein),2,0.51,0.26,0.31,0.95,inactive
EIF3A (eukaryotic translation initiation factor 3 subunit A),1,-2.88,-2.97,-2.88,-2.8,inactive
